Results reported in patent US10073089B2 (priority 2011, dated 2018).

Tests used:
Torpedo nAChR = assay: nonradioactive ligand-receptor binding displacement test on ELISA microplate (biotin-α-BgTx displacement from immobilized Torpedo electrocyte membranes); settings: for IC90: concentration required to inhibit 90% of biotin-α-BgTx binding to Torpedo nAChRs; for inhibition of the biotin-α-BgTx binding with Torpedo nAChR (in words): serial dilutions of standard toxin
[1] = test system: torpedo electrocyte membranes; settings: read-out: Sensitivity (concentration in nM), Arâoz et al., cited from earlier work
[2] = read-out: IC50 (95% CI), 50% inhibition of binding between biotin-α-BgTx and Torpedo nAChRs, Table 1
[3] = read-out: Sensitivity (concentration in nM), Method of the invention, Table 3

Row | Substance | IC90 (Torpedo nAChR) [nM] | IC50 (Torpedo nAChR; [2]) [nM] | IC50 (Torpedo nAChR; [3]) [nM] | inhibition of the biotin-α-BgTx binding with Torpedo nAChR (in words) (Torpedo nAChR) | inhibition of the biotin-α-BgTx binding with Torpedo nAChR (in words) (Torpedo nAChR; listed as 13-desmethyl SPX C) | IC50 ([1]; chemiluminescence detection (CHEM)) [nM] | IC50 ([1]; visual reading (VISUAL)) [nM] | inhibition of the biotin-α-BgTx binding with Torpedo nAChR (in words) (Torpedo nAChR; listed as α-bungarotoxin)
1 | 13,19-didesmethyl spirolide C | 20 | 3.1 | 3.1 | – | – | – | – | –
2 | 13-desmethyl spirolide C | 60 | 6.84 | 6.84 | inhibit the interaction between α-BgTx and Torpedo nAChR in a concentration-dependent manner | competitively inhibit in a dose-dependent manner | – | – | –
3 | anatoxin-a | 2000 | 68.8 | 68.8 | inhibit the interaction between α-BgTx and Torpedo nAChR in a concentration-dependent manner | – | 62 | 17 | –
4 | d-tubocurarine | – | – | – | inhibit the interaction between α-BgTx and Torpedo nAChR in a concentration-dependent manner | – | – | – | –
5 | gymnodimine A | 2000 | 74.2 | 74.2 | inhibit the interaction between α-BgTx and Torpedo nAChR in a concentration-dependent manner | – | – | – | –
6 | homoanatoxin-a | – | – | – | inhibit the interaction between α-BgTx and Torpedo nAChR in a concentration-dependent manner | – | – | – | –
7 | α-bungarotoxin | 70 | 0.27 | – | competitively inhibit in a dose-dependent manner | – | – | – | inhibit the interaction between α-BgTx and Torpedo nAChR in a concentration-dependent manner

Where two headings read alike, the source gives them in different places.
